Pooled drug test results. Numbers come from NIAID ChemDB, via PubChem.

Common to all: tests on isolated targets; agent: HIV-1; target: Reverse transcriptase; read-out: fold resistance

Blank or dashed fields: not listed here. a–b is a range or a potency band. Fold resistance: result on the changed form divided by that on wild type. Rows are shuffled and stem from different studies.

SMILES | strain or isolate | changes | read by | value
CCN1c2ncc(CCOc3ccc(-c4ccc(C(=O)O)c(C)c4)cc3C)cc2C(=O)N(C)c2cccnc21 | IIIB | RT-K103N Y181C | nucleotide incorporation / radiometric | 1
CCN1c2ncc(CCOc3ccc(NS(C)(=O)=O)c4ccccc34)cc2C(=O)N(C)c2ccc(F)nc21 |  | RT-K103N Y181C | nucleotide incorporation / radiometric | 1
CCN1c2ncc(CCOc3ccc(-c4nccn4C)cc3C)cc2C(=O)N(C)c2cccnc21 | IIIB | RT-K103N Y181C | nucleotide incorporation / radiometric | >1
CCc1ccc(-n2c(SCC(=O)Nc3ccc(C(=O)O)cc3C)nnc2C(F)F)c2ccccc12 |  | RT-Y181C | nucleotide incorporation / radiometric | >2
CCN1c2ncc(CCOc3ccc(N(CC(=O)O)C(C)=O)cc3C)cc2C(=O)N(C)c2cccnc21 | IIIB | RT-K103N Y181C | nucleotide incorporation / radiometric | >2
CCN1c2ncc(CCOc3ccc(S(=O)(=O)NC(C)=O)c4ccccc34)cc2C(=O)N(C)c2cccnc21 |  | RT-K103N Y181C | nucleotide incorporation / radiometric | 1–10
CCc1cc(CCc2nc3ccccc3o2)c(=O)[nH]c1C |  | RT-Y188C | nucleotide incorporation | 31
CCc1ccc(-n2c(SCC(=O)Nc3ccc(C(=O)O)cc3Cl)nnc2C(F)(F)F)c2ccccc12 |  | RT-Y188L | nucleotide incorporation / radiometric | >2
NCCCCNc1nc(Cc2ccccc2)cc(=O)[nH]1 |  | RT-L100I |  | 1.36
Cc1cc(C)c2ccccc2c1-n1c(CF)nnc1SCC(=O)Nc1ccc(S(N)(=O)=O)cc1Cl |  | RT-Y188L | nucleotide incorporation / radiometric | >2
CCN1c2ncc(CCOc3ccc4cc(C(=O)NC(C)(C)C(=O)O)ccc4c3)cc2C(=O)N(C)c2cccnc21 |  | RT-K103N Y181C | nucleotide incorporation / radiometric | 1–10
Cc1cc(C)c2ccccc2c1-n1c(SCC(=O)Nc2ccc(S(N)(=O)=O)cc2Cl)nnc1C(F)F |  | RT-Y188L | nucleotide incorporation / radiometric | >2
O=c1cc(Cc2ccccc2)nc(SCCCCO)[nH]1 |  | RT-K103N |  | >10
CCc1ccc(-n2c(Br)nnc2SCC(=O)Nc2ccc(C(=O)NCCC#N)cc2Cl)c2ccccc12 |  | RT-Y181C | nucleotide incorporation / radiometric | >1
CCN1c2ncc(CCOc3ccc(S(=O)(=O)NCC(=O)O)c4ccccc34)cc2C(=O)N(C)c2cccnc21 |  | RT-K103N Y181C | nucleotide incorporation / radiometric | 1
CCc1ccc(-n2c(SCC(=O)Nc3ccc(S(N)(=O)=O)cc3C)nnc2C(F)F)c2ccccc12 |  | RT-Y188L | nucleotide incorporation / radiometric | >2
CCN1c2ncc(CCOc3cccc4c3ccc[n+]4[O-])cc2C(=O)N(C)c2ccc(Cl)nc21 |  | RT-V106A | nucleotide incorporation / radiometric | 94.4
Cc1c(Cc2ccccc2)nc(NCCCCN)[nH]c1=O |  | RT-V179D |  | 1.01
CCN1c2ncc(CCOc3ccc(-c4ccc(N)nc4C)cc3C)cc2C(=O)N(C)c2cccnc21 | IIIB | RT-K103N Y181C | nucleotide incorporation / radiometric | 1
CCN1c2ncc(CCOc3ccc(C(C)C(=O)O)c4ccccc34)cc2C(=O)N(C)c2cccnc21 |  | RT-Y188L | nucleotide incorporation / radiometric | >10
CCN1c2ncc(CCOc3ccc(C(=O)N=c4ccn(O)cc4)cc3C)cc2C(=O)N(C)c2cccnc21 | IIIB | RT-K103N Y181C | nucleotide incorporation / radiometric | 1
CCN1c2ncc(CCOc3ccc(CCC(=O)O)c4ccccc34)cc2C(=O)Nc2c(C)cc(Cl)nc21 |  | RT-K103N Y181C | nucleotide incorporation / radiometric | 1–10
Cc1ccc(-n2c(C)nnc2SCC(=O)Nc2ccc(S(N)(=O)=O)cc2Cl)c2c1CCCC2 |  | RT-Y181C | nucleotide incorporation / radiometric | >1
CCN1c2ncc(CCOc3ccc(-c4ncccn4)cc3)cc2C(=O)N(C)c2cccnc21 | IIIB | RT-K103N Y181C | nucleotide incorporation / radiometric | >2
CCN1c2ncc(CCOc3ccc(CC(=O)O)c4c3CCCC4)cc2C(=O)N(C)c2ccc(F)nc21 |  | RT-Y188L | nucleotide incorporation / radiometric | >10
O=C(CSc1nnc(Br)n1-c1ccc(C2CC2)cc1OC(F)(F)F)Nc1ccc(S(=O)(=O)O)cc1Cl |  | RT-Y188L | nucleotide incorporation / radiometric | >2
CCN1c2ncc(CCOc3ccc(-c4cc(C(=O)O)ccc4OC)cc3C)cc2C(=O)N(C)c2cccnc21 | IIIB | RT-K103N Y181C | nucleotide incorporation / radiometric | >2
COC(=O)[C@H](CC(C)C)NC(=O)c1ccc(NC(=O)CSc2nnc(Br)n2-c2ccc(C3CC3)c3ccccc23)c(Cl)c1 |  | RT-Y188L | nucleotide incorporation / radiometric | >1
CCN1c2ncc(CCOc3ccc(/C=C(\C)C(=O)O)c4ccccc34)cc2C(=O)N(C)c2ccc(F)nc21 |  | RT-K103N Y181C | nucleotide incorporation / radiometric | 1–10
CCOC(=O)N1CCC(NC(=O)c2ccc(NC(=O)CSc3nnc(Br)n3-c3ccc(CC)c4ccccc34)c(Cl)c2)CC1 |  | RT-Y188L | nucleotide incorporation / radiometric | >2
CC(C)=CCN1Cc2cccc3[nH]c(=S)n(c23)C[C@@H]1C |  | RT-Y188L | nucleotide incorporation | >611
Cc1cc(S(=O)(=O)O)ccc1NC(=O)CSc1nnc(C(F)F)n1-c1ccc(C)c2c1CCCC2 |  | RT-Y188L | nucleotide incorporation / radiometric | >2
CCN1c2ncc(CCOc3ccc4cc(CC(=O)O)ccc4c3C)cc2C(=O)N(C)c2cccnc21 |  | RT-Y188L | nucleotide incorporation / radiometric | 1–10

The last 2 rows once more:

SMILES | strain or isolate | changes | read by | value
Cc1cc(S(=O)(=O)O)ccc1NC(=O)CSc1nnc(C(F)F)n1-c1ccc(C)c2c1CCCC2 |  | RT-Y188L | nucleotide incorporation / radiometric | >2
CCN1c2ncc(CCOc3ccc4cc(CC(=O)O)ccc4c3C)cc2C(=O)N(C)c2cccnc21 |  | RT-Y188L | nucleotide incorporation / radiometric | 1–10